Experimental findings from the supplement of paper PMC3578754 are described below.

Fold change is the IC50 on the isolate divided by the IC50 on a reference virus; 1 = unchanged, higher = more resistant. Changes are given against the subtype B consensus. No active / inactive call. The values were gathered from many studies (numbered anew) with different assays, which the source does not name. Most viruses are clinical isolates; some are laboratory strains or clones with known resistance changes. Isolates with mixed residues are left out; stretches that were not sequenced show no change. Round top values that many isolates share are read here as limits; other very high values and 0.1 may be limits too.

Holding throughout (assay): fold change of IC50 against reference virus; higher = more resistant
Compound in one test: Cc1ccnc2c1NC(=O)c1cccnc1N2C1CC1 [nevirapine]
Here is the method:
(§1)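 Cell-culture drug susceptibility tests of virus bearing the reverse transcriptase of each isolate, gathered from many studies.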

Compound in another test: Cc1cn([C@H]2C[C@H](N=[N+]=[N-])[C@@H](CO)O2)c(=O)[nH]c1=O [zidovudine]
Here is the method: as §1

Compound in a further test: O=c1[nH]cnc2c1ncn2[C@H]1CC[C@@H](CO)O1 [didanosine]
Here is the method: as §1

On to “HIV-1 isolate 990 (reverse transcriptase changes: D67N K70R K102Q S162C T215Y K219Q K277R I293V R358K V435I S468P K550G, study 16)”, for which the “fold change of IC50 against reference virus” value (“fold change of IC50” below) with nevirapine stood at 1; with zidovudine, 8000.
On the same counts, the results for “HIV-1 isolate 90 (reverse transcriptase changes: K70R L100I K102Q S162C K277R I293V R358K V435I S468P K550G, study 16)” are 4 and 1.
On the same counts, the results for “HIV-1 isolate 915 (reverse transcriptase changes: V179D Y181C T200A Q207E V245M, study 26)” are 30000 and 1.
On the same counts, the results for “HIV-1 isolate 1119 (reverse transcriptase changes: D67N K70R K101E K102Q S162C T215Y K219Q K277R I293V R358K V435I S468P K550G, study 16)” are 8 and 4000.
As for “HIV-1 isolate 747 (reverse transcriptase changes: M41L L100I K102Q S162C T215Y K277R I293V R358K V435I S468P K550G, study 16)”, the “fold change of IC50” value in the test with nevirapine and with zidovudine was 1 each time.
In the case of “HIV-1 isolate 997 (reverse transcriptase changes: V75I K102Q S162C K277R I293V R358K V435I S468P K550G, study 4)”, the “fold change of IC50” value was 1 with zidovudine and 0.8 in the test with didanosine.
Consider “HIV-1 isolate 1263 (reverse transcriptase changes: V179D Y181C T200A Q207E F227L V245M, study 26)”, for which the results for the “fold change of IC50” value in the test with nevirapine and with zidovudine were 40000 and 1, respectively.
On the same counts, the results for “HIV-1 isolate 87 (reverse transcriptase changes: D67N K70R K102Q S162C Y181C T215Y K219Q K277R I293V R358K V435I S468P K550G, study 16)” are 8 and 4.
On the same counts, the results for “HIV-1 isolate 210 (reverse transcriptase changes: D67N K70R K102Q K103N S162C T215Y K219Q K277R I293V R358K V435I S468P K550G, study 16)” are 8 and 8000.
On the same counts, the results for “HIV-1 isolate 204 (reverse transcriptase changes: K70R K102Q K103N S162C K277R I293V R358K V435I S468P K550G, study 16)” are 8 and 4.
As to “HIV-1 isolate 1164 (reverse transcriptase changes: M41L K102Q S162C Y181C T215Y K277R I293V R358K V435I S468P K550G, study 16)”, the “fold change of IC50” value in the test with nevirapine turned out to be 8; in the test with zidovudine, 60.
Consider “HIV-1 isolate 1258 (reverse transcriptase changes: A62V K102Q S162C K277R I293V R358K V435I S468P K550G, study 4)”, for which the “fold change of IC50” value in the test with zidovudine and in the test with didanosine was 1 throughout.
As for “HIV-1 isolate 91 (reverse transcriptase changes: K103R V179D Y181C T200A Q207E V245M, study 26)”, the “fold change of IC50” value in the test with nevirapine was 30000; with zidovudine, 1.
On the same counts, the results for “HIV-1 isolate 1278 (reverse transcriptase changes: D67N K70R L100I K102Q S162C T215Y K219Q K277R I293V R358K V435I S468P K550G, study 16)” are 1 and 2.
As to “HIV-1 isolate 777 (reverse transcriptase changes: V75I F77L K122E Q151M F214L A272P K277R, study 72)”, the “fold change of IC50” value was determined as 48 in the test with zidovudine and 6.8 in the test with didanosine.
Take “HIV-1 isolate 961 (reverse transcriptase changes: V108I V179D Y181C T200A Q207E V245M, study 26)”: the “fold change of IC50” value with nevirapine is 30000; in the test with zidovudine, 1.
For the test system “HIV-1 isolate 199 (reverse transcriptase changes: F77L K102Q S162C K277R I293V R358K V435I S468P K550G, study 4)”, the “fold change of IC50” value with zidovudine and in the test with didanosine was 1 in each case.
In the case of “HIV-1 isolate 470 (reverse transcriptase changes: V75I F77L K102Q F116Y Q151M S162C M184V K277R I293V R358K V435I S468P K550G, study 128)”, the “fold change of IC50” value was 700 with zidovudine and 17 with didanosine.
On the same counts, the results for “HIV-1 isolate 878 (reverse transcriptase changes: K102Q F116Y S162C K277R I293V R358K V435I S468P K550G, study 4)” are 1 and 0.9.
On the same counts, the results for “HIV-1 isolate 790 (reverse transcriptase changes: K102Q Q151M S162C K277R I293V R358K V435I S468P K550G, study 72)” are 5.6 and 4.5.
As to “HIV-1 isolate 428 (reverse transcriptase changes: M41L A98G K102Q S162C T215Y K277R I293V R358K V435I S468P K550G, study 16)”, the “fold change of IC50” value with nevirapine was found to be 8; with zidovudine it was 4000.
On to “HIV-1 isolate 1198 (reverse transcriptase changes: V75I F77L K102Q Q151M S162C K277R I293V R358K V435I S468P K550G, study 72)”, for which the “fold change of IC50” value with zidovudine was found to be 48; with didanosine, 6.8.
Turning to “HIV-1 isolate 115 (reverse transcriptase changes: M41L K101E K102Q S162C T215Y K277R I293V R358K V435I S468P K550G, study 16)”, the “fold change of IC50” value was found to be 4 with nevirapine and 4000 with zidovudine.
On the same counts, the results for “HIV-1 isolate 202 (reverse transcriptase changes: T69G K102Q K103N S162C K277R, study 98)” are 40 and 1.2.
On the same counts, the results for “HIV-1 isolate 579 (reverse transcriptase changes: M41L V106A K122E F214L T215Y A272P K277R M357T A376T A400T N447S D460N S468T S519N, study 17)” are 300 and 110.
On the same counts, the results for “HIV-1 isolate 1262 (reverse transcriptase changes: M41L K102Q K103N S162C T215Y K277R I293V R358K V435I S468P K550G, study 16)” are 8 and 2000.
In the case of “HIV-1 isolate 468 (reverse transcriptase changes: V75I F77L K102Q F116Y Q151M S162C K277R I293V R358K V435I S468P K550G, study 72)”, the results for the “fold change of IC50” value in the test with zidovudine and with didanosine were 880 and 27, respectively.
As for “HIV-1 isolate 357 (reverse transcriptase changes: D67N K70R A98G K102Q S162C T215Y K219Q K277R I293V R358K V435I S468P K550G, study 16)”, the “fold change of IC50” value with nevirapine was found to be 1; with zidovudine it was 2000.
“HIV-1 isolate 641 (reverse transcriptase changes: L74V K122E F214L A272P K277R A376T A400T D460N S468T H483Y K512Q S519N, study 72)”: in the test with didanosine, the “fold change of IC50” value is 3.
Consider “HIV-1 isolate 1289 (reverse transcriptase changes: K102Q V106A S162C K277R, study 16)”, for which the “fold change of IC50” value in the test with nevirapine is 8.
Regarding “HIV-1 isolate 114 (reverse transcriptase changes: K70R K101E K102Q S162C K277R I293V R358K V435I S468P K550G, study 16)”, the “fold change of IC50” value with nevirapine turned out to be 8; in the test with zidovudine, 4.
As for “HIV-1 isolate 448 (reverse transcriptase changes: K70R K102Q S162C K277R I293V R358K V435I S468P K550G, study 16)”, the “fold change of IC50” value with nevirapine stood at 1; in the test with zidovudine it was 4.
Consider “HIV-1 isolate 481 (reverse transcriptase changes: K122E Y181C F214L A272P K277R M357T A376T A400T N447S D460N S468T S519N, study 125)”, for which the “fold change of IC50” value with nevirapine was 100.
Turning to “HIV-1 isolate 892 (reverse transcriptase changes: V179D T200A Q207E V245M A272P, study 26)”, the “fold change of IC50” value in the test with nevirapine and with zidovudine was 1 throughout.
Regarding “HIV-1 isolate 1473 (reverse transcriptase changes: K70R K102Q S162C Y181C K277R I293V R358K V435I S468P K550G, study 16)”, the figures for the “fold change of IC50” value in the test with nevirapine and with zidovudine were 8 and 1, respectively.
